# Measurements reported in PubChem BioAssay AID504761 (Drosophila RNAi Screening Center, 2011)
# Assay: 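Fly genes whose silencing reduces dengue virus type 2 infection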 (primary screen)
# System: D.Mel-2 cells from Drosophila
# Reagents: long dsRNA against Drosophila genes
# Conditions: infection with dengue virus type 2; dose and infection time not stated
# Detection: 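Per well on two replicate plates, imaging gave the percent of cells positive for viral envelope protein, ranked by infection, and a nuclear count of cells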
# Scale: infection score: higher = more virus-infected cells; cell count: higher = more cells in the well
# Hit rule: 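Low infection ranks in the two replicates (chance level up to 0.065) followed by a retest with a 1.5-fold or larger significant decrease, p below 0.05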
# Calls: active = confirmed: knock-down lowers infection; inactive = not picked or not confirmed
# The deposit covers about 22,000 reagents; this is a random part of those that have a named target and a result. Of all reagents, 116 (0.52%) got an active call. 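Calls depend on retest data that are not deposited; infection was ranked per plate without normalising between plates; the unit of the infection score is not given.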 Raw values are not corrected between plates. A number with no mark means an inactive call. A plus sign joins genes that one reagent is predicted to hit. Not given: the amount of reagent, the time to read-out.
"infection score, replicate 1","infection score, replicate 2","cell count, replicate 1","cell count, replicate 2",gene,dsRNA
4.63,3.7,6524,6867,CG16956,DRSC02544
19.2,12,5409,4989,CG31668,DRSC22584
3.89,6.74,6455,6443,Ipo9,DRSC16813
10.5,12.5,6250,6329,CG7384,DRSC03053
0.63,2.1,6530,6228,CG31093,DRSC15689
4.67,2.68,6747,6932,CG13837,DRSC14687
18.5,4.4,4483,6272,GramD1B,DRSC00426
4,17.5,6177,5657,GramD1B,DRSC00591
3.38,5.45,6007,6344,GramD1B,DRSC23885
15.2,4.87,3296,2240,GramD1B,DRSC28705
1.4,13.3,6514,6974,Pat1,DRSC17750
12.1,26.4,7122,6410,Pat1,DRSC27265
5.93,9.04,5781,7048,IFT54,DRSC15469
6.26,7.72,6089,6202,CG40298,DRSC22274
,,307,249,prage,DRSC17957
,13.2,339,4406,prage,DRSC18490
,,362,367,prage,DRSC18497
34.6,49,3154,1928,CG2063,DRSC06811
2.87,6.82,6168,6156,CG14573,DRSC11734
16,13.4,4324,6045,CG14573,DRSC29094
3.08,2.7,6402,6295,RSG7,DRSC20274
1.67,3.29,5497,6207,RSG7,DRSC22852
3.04,15.6,6679,6304,CG31199,DRSC15284

Continued, starting with the last 5 of the part before.
"infection score, replicate 1","infection score, replicate 2","cell count, replicate 1","cell count, replicate 2",gene,dsRNA
2.87,6.82,6168,6156,CG14573,DRSC11734
16,13.4,4324,6045,CG14573,DRSC29094
3.08,2.7,6402,6295,RSG7,DRSC20274
1.67,3.29,5497,6207,RSG7,DRSC22852
3.04,15.6,6679,6304,CG31199,DRSC15284
1.32,0.47,6039,5715,side-VIII,DRSC05880
1.36,0.63,5384,5064,side-VIII,DRSC05883
3.87,0.44,5944,6435,side-VIII,DRSC06157
2.25,3.56,5867,6540,side-VIII,DRSC23187
12.3,16,6002,4697,side-VIII,DRSC28353
4.56,17.4,6759,6161,CG12985,DRSC19505
8.72,6.75,6419,6131,CG12985,DRSC26985
2.23,0.72,6406,6089,Dnaaf6,DRSC10473
7.51,6.53,6974,6663,Shawn + Tyler,DRSC19564
1.18,0.26,6366,6581,Shawn + Tyler,DRSC19565
9.26,18.5,6567,6233,CG2812,DRSC04319
15.9,12.5,4040,3055,CG2812,DRSC28384
3.28,3.4,5946,6770,CG18641,DRSC00527
3.72,3.4,6077,6739,CG13590,DRSC04226
35.9,9.81,5466,6117,CG13590,DRSC29790
0.92,,6424,,Ir41a,DRSC04730
19.2,1.01,5872,696,Ir41a,DRSC04875
